Experimental data reported in PMC7954794, “Protein context shapes the specificity of SH3 domain-mediated interactions in vivo” (Nature Communications, 2021).

system: ABP1; experiment: DHFR-PCA on solid medium, bait ABP1 (Fig. 1B); type: cell-based, Saccharomyces cerevisiae; parameters: key: 0: SH3-independent; 1: SH3-dependent PPIs; 2: SH3-inhibited PPIs; details: bait ABP1, label = prey
Description: Supplement 41467_2021_21873_MOESM8_ESM.xlsx, sheet "Fig1B" | column: medsize; medrep; Ratio; Score

Molecule | Score
YLR330W (protein, UniProt Q12114 1-671, looked up) Chitin biosynthesis protein …: MSSVDVLLTVGKLDASLALLTTQDHHVIEFPTVLLPENVKAGSIIKMQVSQNLEEEKKQRNHFKSIQAKILEKYGTHKPESPVLKIVNVTQTSCVLAWDPLKLGSAKLKSLILYRKGIRSMVIPNPFKVTTTKISGLSVDTPYEFQLKLITTSGTLWSEKVILRTHKMTDMSGITVCLGPLDPLKEISDLQISQCLSHIGARPLQRHVAIDTTHFVCNDLDNEESNEELIRAKHNNIPIVRPEWVRACEVEKRIVGVRGFYLDADQSILKNYTFPPVNEEELSYSKENEPVAEVADENKMPEDTTDVEQVASPNDNESNPSEAKEQGEKSGHETAPVSPVEDPLHASTALENETTIETVNPSVRSLKSEPVGTPNIEENKADSSAEAVVEEPNEAVAESSPNEEATGQKSEDTDTHSNEQADNGFVQTEEVAENNITTESAGENNEPADDAAMEFGRPEAEIETPEVNESIEDANEPAEDSNEPVEDSNKPVKDSNKPVEDSNKPVEDSNKPVEDSNKPVEDANEPVEDTSEPVEDAGEPVQETNEFTTDIASPRHQEEDIELEAEPKDATESVAVEPSNEDVKPEEKGSEAEDDINNVSKEAASGESTTHQKTEASASLESSAVTEEQETTEAEVNTDDVLSTKEAKKNTGNSNSNKKKNKKNKKKGKKK | 0
YJL128C (protein, UniProt P08018 1-668, looked up) MAP kinase kinase PBS2: MEDKFANLSLHEKTGKSSIQLNEQTGSDNGSAVKRTSSTSSHYNNINADLHARVKAFQEQRALKRSASVGSNQSEQDKGSSQSPKHIQQIVNKPLPPLPVAGSSKVSQRMSSQVVQASSKSTLKNVLDNQETQNITDVNINIDTTKITATTIGVNTGLPATDITPSVSNTASATHKAQLLNPNRRAPRRPLSTQHPTRPNVAPHKAPAIINTPKQSLSARRGLKLPPGGMSLKMPTKTAQQPQQFAPSPSNKKHIETLSNSKVVEGKRSNPGSLINGVQSTSTSSSTEGPHDTVGTTPRTGNSNNSSNSGSSGGGGLFANFSKYVDIKSGSLNFAGKLSLSSKGIDFSNGSSSRITLDELEFLDELGHGNYGNVSKVLHKPTNVIMATKEVRLELDEAKFRQILMELEVLHKCNSPYIVDFYGAFFIEGAVYMCMEYMDGGSLDKIYDESSEIGGIDEPQLAFIANAVIHGLKELKEQHNIIHRDVKPTNILCSANQGTVKLCDFGVSGNLVASLAKTNIGCQSYMAPERIKSLNPDRATYTVQSDIWSLGLSILEMALGRYPYPPETYDNIFSQLSAIVDGPPPRLPSDKFSSDAQDFVSLCLQKIPERRPTYAALTEHPWLVKYRNQDVHMSEYITERLERRNKILRERGENGLSKNVPALHMGGL | 0
YJL201W (protein, UniProt P32525 1-599, looked up) Protein ECM25: MIDINVNNIFFRSYSVDPNSGHAIYVFDSTYLPASDEIGDKQVYDLLINALMDRLVMKLPQAPYSLVIFSSGFSQRKISWVYGIKMFAKLPKETKFYLQKIFIVHESFFVRSVYQVISNAMNFNFLDSKDSQHDFPSLVHVLDLTSLSELIDITRLRISLNVYLYDYQIREHINVPEEYYNRLTPLAIRQYRQLVFDKIFKKLQNDALLCELIFQKPGNYKKVNIFLDIIKRNNYIDLSQWDIYSLASVWLNYFIKNKAKPLIPIELIPLPIVDDLKFTSETFRKIIKFNQYQDLFMVIIPFFNRIIAHGESTKHDSRTLSKALTPALCKEKLSMMTNDRLAIGSRYIKNLLDFFPEIAKEISSPPSSVSSSSTIPVLPKPRKSSPTRYSELGCLTLPRSRSPSPQRSVTSPTYTPVALQNTPVLKPKSSSRNVSSPSFNAKPPLPIKAVTRPQLSLTSNSNTDLALASSSTDTLSSPTKTPSADSLPLSNSSTDLTISDNIKEMVKDEPAKDKNSVETDIFVQQFESLTLVQNAKIKKFDKELQEKKKKNETTSKTADKFSQKGYSDIKASNKVSRLAALYEERLQGLQVMNEMKQRW | 0
YKR048C (protein, UniProt P25293 1-417, looked up) Nucleosome assembly protein: MSDPIRTKPKSSMQIDNAPTPHNTPASVLNPSYLKNGNPVRAQAQEQDDKIGTINEEDILANQPLLLQSIQDRLGSLVGQDSGYVGGLPKNVKEKLLSLKTLQSELFEVEKEFQVEMFELENKFLQKYKPIWEQRSRIISGQEQPKPEQIAKGQEIVESLNETELLVDEEEKAQNDSEEEQVKGIPSFWLTALENLPIVCDTITDRDAEVLEYLQDIGLEYLTDGRPGFKLLFRFDSSANPFFTNDILCKTYFYQKELGYSGDFIYDHAEGCEISWKDNAHNVTVDLEMRKQRNKTTKQVRTIEKITPIESFFNFFDPPKIQNEDQDEELEEDLEERLALDYSIGEQLKDKLIPRAVDWFTGAALEFEFEEDEEEADEDEDEEEDDDHGLEDDDGESAEEQDDFAGRPEQAPECKQS | 0
YJL155C (protein, UniProt P32604 1-452, looked up) Fructose-2,6-bisphosphatase: MGYSTISNDNDIKVCVIMVGLPARGKSFISQKIIRYLSWLSIKAKCFNVGNYRRDVSGNVPMDAEFFNFENTDNFKLRELAAQNAIKDIVNFFTKEDGSVAVFDATNSTRKRRKWLKDICEKNNIQPMFLESWSNDHELIINNAKDIGSTSPDYENSEPHVAEADFLERIRQYERFYEPLDPQKDKDMTFIKLVNIIEEVVINKIRTYLESRIVFYVMNIRPKPKYIWLSRHGESIYNVEKKIGGDSSLSERGFQYAKKLEQLVKESAGEINLTVWTSTLKRTQQTANYLPYKKLQWKALDELDAGVCDGMTYEEIEKEYPEDFKARDNDKYEYRYRGGESYRDVVIRLEPVIMELERQENVLIITHQAVLRCIYAYFMNVPQEESPWMSIPLHTLIKLEPRAYGTKVTKIKANIPAVSTYKEKGTSQVGELSQSSTKLHQLLNDSPLEDKF | 0
YLR206W (protein, UniProt Q05785 1-613, looked up) Epsin-2: MSKQFVRSAKNMMKGYSSTQVLVRDATANDSRTPSIDTLDDLAQRSYDSVDFFEIMDMLDKRLNDKGKYWRHVAKSLTVLDYLVRFGSENCVLWCRENFYVIKTLREFRHENESGFDEGQIIRVKAKELVSLLNDEERLREERSMNTRNRRANRAARPRPRRQRTRSNPHDSSPSYQDDLEKALEESRITAQEDEQRRRELAQYDDEDPDFQAALQLSKEEEELKQLQELQRLQKQQQSLSQFQAPLQQQQPQQQPAYYDIFGNPISQDEYLQYQYQQDQEQAMAQQRWLDQQQEQQQLAEQQYFQQQQQAAAAASALQQQQTAANMQQQQQQPADFQQPLPTGSNNPFSMDNLERQKQEQQHAQLQRQQEEARQQQEQLKLQQLQRQQQEEAQLHQKRQEEAQLQQQQAQLLQQQAQFQQQQPLKQTRTGNQSISDKYSDLNTLLATGTGIDTFGNTGEARIPAQHTKTGTFINSQGTGYKQVTNEPKNNPFLSNQYTGLPSTNIVPTQTGYGFGNQPQSPPTNSPQQNPTGISYSQPQQQQQPQQQPQYMQNFQQQQPQYAQNFQQQPQYTQNYQQQPQYIQPHQQQQQQQQQQQQQQGYTPDQGVSLIDL | 0
YLR337C (protein, UniProt P37370 1-817, looked up) Verprolin: MAGAPAPPPPPPPPALGGSAPKPAKSVMQGRDALLGDIRKGMKLKKAETNDRSAPIVGGGVVSSASGSSGTVSSKGPSMSAPPIPGMGAPQLGDILAGGIPKLKHINNNASTKPSPSASAPPIPGAVPSVAAPPIPNAPLSPAPAVPSIPSSSAPPIPDIPSSAAPPIPIVPSSPAPPLPLSGASAPKVPQNRPHMPSVRPAHRSHQRKSSNISLPSVSAPPLPSASLPTHVSNPPQAPPPPPTPTIGLDSKNIKPTDNAVSPPSSEVPAGGLPFLAEINARRSERGAVEGVSSTKIQTENHKSPSQPPLPSSAPPIPTSHAPPLPPTAPPPPSLPNVTSAPKKATSAPAPPPPPLPAAMSSASTNSVKATPVPPTLAPPLPNTTSVPPNKASSMPAPPPPPPPPPGAFSTSSALSASSIPLAPLPPPPPPSVATSVPSAPPPPPTLTTNKPSASSKQSKISSSSSSSAVTPGGPLPFLAEIQKKRDDRFVVGGDTGYTTQDKQEDVIGSSKDDNVRPSPISPSINPPKQSSQNGMSFLDEIESKLHKQTSSNAFNAPPPHTDAMAPPLPPSAPPPPITSLPTPTASGDDHTNDKSETVLGMKKAKAPALPGHVPPPPVPPVLSDDSKNNVPAASLLHDVLPSSNLEKPPSPPVAAAPPLPTFSAPSLPQQSVSTSIPSPPPVAPTLSVRTETESISKNPTKSPPPPPSPSTMDTGTSNSPSKNLKQRLFSTGGSTLQHKHNTHTNQPDVDVGRYTIGGSNSIVGAKSGNERIVIDDSRFKWTNVSQMPKPRPFQNKTKLYPSGKGSSVPLDLTLFT | 0
YKR001C (protein, UniProt P21576 1-704, looked up) Vacuolar protein …: MDEHLISTINKLQDALAPLGGGSQSPIDLPQITVVGSQSSGKSSVLENIVGRDFLPRGTGIVTRRPLVLQLINRRPKKSEHAKVNQTANELIDLNINDDDKKKDESGKHQNEGQSEDNKEEWGEFLHLPGKKFYNFDEIRKEIVKETDKVTGANSGISSVPINLRIYSPHVLTLTLVDLPGLTKVPVGDQPPDIERQIKDMLLKYISKPNAIILSVNAANTDLANSDGLKLAREVDPEGTRTIGVLTKVDLMDQGTDVIDILAGRVIPLRYGYIPVINRGQKDIEHKKTIREALENERKFFENHPSYSSKAHYCGTPYLAKKLNSILLHHIRQTLPEIKAKIEATLKKYQNELINLGPETMDSASSVVLSMITDFSNEYAGILDGEAKELSSQELSGGARISYVFHETFKNGVDSLDPFDQIKDSDIRTIMYNSSGSAPSLFVGTEAFEVLVKQQIRRFEEPSLRLVTLVFDELVRMLKQIISQPKYSRYPALREAISNQFIQFLKDATIPTNEFVVDIIKAEQTYINTAHPDLLKGSQAMVMVEEKLHPRQVAVDPKTGKPLPTQPSSSKAPVMEEKSGFFGGFFSTKNKKKLAALESPPPVLKATGQMTERETMETEVIKLLISSYFSIVKRTIADIIPKALMLKLIVKSKTDIQKVLLEKLYGKQDIEELTKENDITIQRRKECKKMVEILRNASQIVSSV | 0
YLR196W (protein, UniProt P21304 1-576, looked up) Periodic tryptophan protein 1: MISATNWVPRGFSSEFPEKYVLDDEEVERINQLAQLNLDDAKATLEEAEGESGVEDDAATGSSNKLKDQLDIDDDLKEYNLEEYDDEEIADNEGGKDVSMFPGLSNDSDVKFHEGEKGEDPYISLPNQEDSQEEKQELQVYPSDNLVLAARTEDDVSYLDIYVYDDGAGFHSSDIPVEEGDEADPDVARGLVRDPALYVHHDLMLPAFPLCVEWLDYKVGSNSEEAANYAAIGTFDPQIEIWNLDCVDKAFPDMILGEPLDNSMVSLKSKKKKKKSKTGHITTHHTDAVLSMAHNKYFRSVLASTSADHTVKLWDLNSGNAARSLASIHSNKNVSSSEWHMLNGSILLTGGYDSRVALTDVRISDESQMSKYWSAMAGEEIETVTFASENIILCGTDSGNVYSFDIRNNENRKPVWTLKAHDAGISTLCSNKFIPGMMSTGAMGEKTVKLWKFPLDDATNTKGPSMVLSRDFDVGNVLTSSFAPDIEVAGTMVIGGVNKVLKLWDVFTNRSVRKSFKSELENVQARAKEEAQKIGKSSRIARKYTSNDNPDTVITIDDQGEDEEEREGGDEHDDMA | 0

Some results come without the dose or concentration used.
